## Screening data, single-dose tests

Data taken from ChEMBL document CHEMBL3988442, “University of Dundee, Small-Polar-MMV Screening Library” (2021).

Results are given as percent effect.
The controls that fix the scale are not given in the record; negative values are as filed.
The entries come from a sample that favours strong results.
Two or more numbers in one place are separate tests of the same structure; such repeats can differ widely.

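Whole-cell growth test on Mycobacterium tuberculosis, read after 3 days in glucose-containing 7H9 medium; the read-out is not stated. Tested at 50 µM. Higher reads as more growth inhibition (inferred: compounds with an IC50 in retests scored well above the rest). Size under these conditions: about 69,000 compounds, about 760 of them at 50% or above in at least one test.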

| Compound | Percent Effect |
|---|---|
| `COCCN1CC=C(c2cccc(OC)c2)CC1` | 3.874 |
| `O=C(O)C(F)(F)F.[H][C@@]12CN(Cc3cccs3)C[C@]1([H])C(=O)N(c1ccsc1)C2` | 54.89 |
| `c1ccc2c(c1)CN(c1ncnc3c1CCNC3)CCO2` | 17.64 |
| `CC(C)C(NC(=O)c1cnc(N2CCOCC2)nc1)c1cccs1` (stereo not given) | 60.96 |
| `CC(C)N1CC(C(=O)N2CCC(Oc3ccccc3Cl)CC2)CC1=O` (stereo not given) | 5.216 |
| `Cc1ccc(CN(Cc2ccncc2)C2CCN(C)CC2)s1` | 102.1 and -10.55 |
| `O=C(CC1CCC1)N1CCCC(CO)(CC2CC2)C1` (stereo not given) | -17.86 and 0.4176 |
| `CC(Oc1cc(Cl)cc(Cl)c1)C(=O)NCCOCC(N)=O` (stereo not given) | -20.09 |
| `COc1ccc(-c2cc(C[C@@H]3C[C@H](N(C)C)C3(C)C)no2)cc1` | 11.48 and -3.36 |
| `COCCN1CCC1c1cc(NC2CCCC2)nc(C)n1` (stereo not given) | 40 |
| `Cc1ccn(-c2ccccc2NCc2cccnc2C)n1` | 25.47 and 29.05 |
| `CN(Cc1cccc(Cl)c1)Cc1nnsc1Cl` | -8.157 |
| `COc1ccc(F)cc1C(=O)C1CCCN(Cc2cnc(C)s2)C1` (stereo not given) | 21.79 and 5.18 |
| `CC(C)n1nccc1NC(=O)NCCc1nc2ccc(F)cc2n1C` | 111.8 and -7.874 |
| `O=S(=O)(c1cccnc1)N1CCCC1COc1ccccc1` (stereo not given) | 3.534 and 9.103 |
| `COc1ccc(CNc2nc(C3CC3)nc3c(C)nn(C)c23)cc1` | 76.58 |
| `CC(C)c1nc(CN2CCC(CO)CC2)cs1` | -44.26 |
| `CN(Cc1nnc(-c2cccs2)o1)Cc1nc2c(s1)CCCC2` | 24.88 |
| `O=C(CSCC1CC1)N1CCCN(Cc2ccc(F)cc2)CC1` | -28.09 and -0.5773 |
| `Cc1cc(N2CCOCC(Cc3ccc4[nH]ccc4c3)C2)ncn1` (stereo not given) | 42 |
| `COc1ccc(-c2nc(C3(NC(=O)OC(C)(C)C)CCC3)no2)cn1` | 18.76 |
| `CCC(CNC(=O)c1ccc(Br)o1)N1CCc2ccccc2C1` (stereo not given) | 59.25 |
| `CC(C)C(NC(=O)c1ccc(N2CCOCC2)nc1)c1cccs1` (stereo not given) | 17.73 |
| `CC1COc2ccccc2N1C(=O)CCc1cscn1` (stereo not given) | 32.33 and 16.98 |
| `CCOC(=O)CNC(=O)C1CN(C(=O)c2cnccn2)C1` | 1.837 and 27.12 |
| `CNC(=O)N1CCC(=Cc2ccccc2)CC1` | 14.49 and -1.055 |
| `O=S(=O)(NCCNc1cc(-n2cccn2)ncn1)c1cccs1` | -16.24 and 5.048 |
| `CCCc1ccc2oc(C(=O)N3CCN(CCC(N)=O)CC3)c(C)c2c1` | 36.62 |
| `COCCC1(CNC(=O)Nc2ccc(-n3nccn3)cc2)CCC1` | 23.16 |
| `CCCn1nnnc1CN(C)C(C)c1ccc(C)cc1` (stereo not given) | 10.97 |
| `COc1cc(Cl)cc(CN2CCCC(N3CCOCC3)C2)c1OC` (stereo not given) | 5.154 |
| `CCCN1Cc2ccccc2NC(=O)C12CCNC2` (stereo not given) | 22.11 |
| `CN(Cc1nnc2n1CCC2)C(=O)c1ccc2c(c1)OCCCO2` | 111.9 |
| `Cc1cccc(N(CC(=O)N2CCCCC2)Cc2nc(=O)[nH][nH]2)c1` | 21.04 |
| `COCCNc1nnc(-c2ccccn2)s1` | 12.63 |
| `CC(C)Oc1ncnc2c1CCN(Cc1ccco1)CC2.O=C(O)C(F)(F)F` | 2.151 and -0.03843 |
| `CC(C)(C)c1ccc(-n2ncc3c2CCCC3N)cc1` (stereo not given) | 52.98 |
| `O=C(c1ccc2c(c1)OCO2)N1CCCSCC1CN1CCCC1` (stereo not given) | 6.975 |
| `CC1(C)Oc2ccc(NC(=O)c3ccc(=O)[nH]n3)cc2O1` | 28.43 and 5.931 |
| `CCCc1nnc(N2CC[C@@](O)(C3CCOCC3)[C@H](C)C2)s1` | -4.658 |
| `CC(NC(=O)CNc1cc2c(cc1Cl)OCCO2)c1ccco1` (stereo not given) | 11.59 |
| `CCCc1nc(C)cc(N2CCC3(CCC(=O)N(CCO)C3)CC2)n1` | 91.38 and -14.37 |

5 of the entries, repeated:

{"compound": "O=C(CSCC1CC1)N1CCCN(Cc2ccc(F)cc2)CC1", "Percent Effect": "-28.09 and -0.5773"}
{"compound": "CC(C)C(NC(=O)c1cnc(N2CCOCC2)nc1)c1cccs1", "stereo": "stereo not given", "Percent Effect": 60.96}
{"compound": "COCCN1CCC1c1cc(NC2CCCC2)nc(C)n1", "stereo": "stereo not given", "Percent Effect": 40}
{"compound": "COc1ccc(-c2cc(C[C@@H]3C[C@H](N(C)C)C3(C)C)no2)cc1", "Percent Effect": "11.48 and -3.36"}
{"compound": "Cc1ccn(-c2ccccc2NCc2cccnc2C)n1", "Percent Effect": "25.47 and 29.05"}